Pooled drug test results. Numbers come from NIAID ChemDB, via PubChem.

Shared fields: growth or infection tests; organism: Candida albicans

Lines come from different laboratories, so protocols vary. Blank or dashed fields: not listed here. ECn is the concentration giving n% inhibition of infection, replication or growth. A number after MIC or MFC names an inhibition level or a share of isolates. a–b is a range or a potency band.

SMILES	read-out	strain	conditions	method	result
CCC[C@H](N)C(=O)N[C@H]1CCN(c2c(F)cn3c(=O)c(C(=O)O)cc(C4CC4)c3c2C)C1.Cl	MIC	CCH442			>100 µg/mL
Clc1ccc(COC(Cn2ccnc2)c2ccc(Cl)cc2Cl)cc1	MIC50				6.25 µg/mL
C/C=C/c1ccc(O)c(OC)c1	MIC			broth dilution	170 µg/mL
Cc1c(N2CC(N)C2)c(F)cn2c(=O)c(C(=O)O)cc(C3CC3)c12	MIC	CCH442			>100 µg/mL
CNC1C(C)OC(O[C@H]2c3cc(C)c(C(=O)NC(C)C(=O)OC)c(OC4OC(CO)C(O)C(O)C4O)c3-c3c(cc4c(c3O)C(=O)c3cc(OC)cc(O)c3C4=O)[C@@H]2O)C(O)C1OC1OC(CO)C(O)C(O)C1O	MIC	A9540			>100 µg/mL
COc1ccc2c(c1)C(=O)C(c1ccc(-c3ccc(Cl)cc3)cc1)=[N+]2[O-]	MIC				31.25 µg/mL
CCCCCCCCC[C@@H](O)[C@H](C)N	MIC	MTCC 183			9.9 µM
O=C1C(c2ccc(Cl)cc2)=[N+]([O-])c2ccccc21	MFC				>12.5 µg/mL
COc1cc(O)c2c(=O)oc(CO)c(CO)c2c1C	MIC	NCPF3153		broth dilution / absorbance	>128 µg/mL
CCC(C)n1ncn(-c2ccc(N3CCN(c4ccc(OC[C@H]5CO[C@](Cn6cncn6)(c6ccc(Cl)cc6Cl)O5)cc4)CC3)cc2)c1=O	MIC	ATCC 24433			0.06 µg/mL
COc1cc(O)c2c(c1)C(=O)c1c(cc3c(c1O)-c1c(cc(C)c(C(=O)NC(C)C(=O)O)c1O)[C@H](OC1OC(C)C(N(C)C)C(OC(CO)OCCO)C1O)[C@H]3O)C2=O	MIC	A9540			6.3 µg/mL
O=C(/C=C/c1ccccc1)Oc1cccc2cccnc12	MIC				>100 µg/mL
COc1cc(O)c2c(=O)c3c(C)cc(O)cc3oc2c1	EC50	SC5314		resazurin	149 µM
Cc1c(N2CCC[C@H](N)C2)c(F)cn2c(=O)c(C(=O)O)cc(C3CC3)c12	MIC	CCH442			>100 µg/mL
O=C(O)/C=C/c1ccc(O)c(O)c1	MIC	ATCC 90028	biofilm	XTT	500 µg/mL
COc1cc(O)c2c(c1)C1=C[C@@H](O)[C@H](O)C[C@]1(C)OC2=O	EC50	SC5314		resazurin	>250 µM
COc1cc(O)c2c(c1)C(=O)c1c(cc3c(c1O)-c1c(cc(C)c(C(=O)NC(C)C(=O)O)c1O)[C@H](OC1OC(C)CC(O)C1O)[C@H]3O)C2=O	MIC	A9540			3.1 µg/mL
CCC(C)n1ncn(-c2ccc(N3CCN(c4ccc(OC[C@H]5CO[C@](Cn6cncn6)(c6ccc(Cl)cc6Cl)O5)cc4)CC3)cc2)c1=O	MIC	Darlington			>16 µg/mL
Oc1cccc2cccnc12	MIC				25 µg/mL
CC1=C(N2C[C@H](CF)[C@@H](N)C2)C(F)=CN2C(=O)C(C(=O)O)=CC(C3CC3)C12	MIC	CCH442			>100 µg/mL
COc1cc(O)c2c(c1)C1OC(=O)C[C@]1(C)OC2=O	EC50	SC5314		resazurin	>250 µM
O=C1C(c2ccc(Cl)cc2)=[N+]([O-])c2cc[n+]([O-])cc21	MFC				15.63 µg/mL
Cc1cc(O)cc2oc3cc(O)cc(O)c3c(=O)c12	EC50	SC5314		resazurin	>250 µM
NC1CCN(c2c(F)cn3c(=O)c(C(=O)O)cc(C4CC4)c3c2F)C1	MIC	CCH442			>100 µg/mL
O=C1C(c2ccccc2)=[N+]([O-])c2ccccc21	MIC				3.9 µg/mL
COc1cc(CCc2cc(OC)c(OC)c(OC)c2)cc(OC)c1OC	MIC80	BWP17-DPP3-GFP		broth dilution	64 µg/mL
Cc1ccc(O)cc1	MIC			broth dilution	880 µg/mL
Cc1c(N2C[C@@H](N)[C@@H](C)C2)c(F)cn2c(=O)c(C(=O)O)cc(C3CC3)c12	MIC	CCH442			1.56 µg/mL
Oc1cccc2ccc(/C=C/c3cccc(Cl)c3)nc12	MIC80				7.81 µg/mL
CC1=C(N2CCC(ON)C2)C(F)=CN2C(=O)C(C(=O)O)=CC(C3CC3)C12	MIC	CCH442			100 µg/mL
Oc1ccc(C=Nc2ccc3cccc(O)c3n2)cc1	MIC80				3.91 µg/mL
O=C(Oc1cccc2cccnc12)c1ccccc1	MIC				>100 µg/mL
COc1c2occc2cc2ccc(=O)oc12	EC50	105		broth dilution	<400 µg/mL
COc1ccc(CO)cc1	MIC	ATCC 90028	biofilm	XTT	500 µg/mL
CC(=O)Nc1c2sscc-2n(C)c1=O	MIC	IPA200			20 µg/mL
CC1=C(N2CCC[C@@H](NC(=O)[C@H](C)N)C2)C(F)=CN2C(=O)C(C(=O)O)=CC(C3CC3)C12	MIC	CCH442			>100 µg/mL
COc1ccc2c(c1)C(=O)C(c1cccnc1)=[N+]2[O-]	MIC				7.81 µg/mL
CC1=C(N2CCC(N)(CF)C2)C(F)=CN2C(=O)C(C(=O)O)=CC(C3CC3)C12	MIC	CCH442			>100 µg/mL
Oc1ccc2c(c1)CCc1ccc(cc1)Oc1cc(ccc1O)CCc1cc(O)ccc1-2	MIC80	BWP17-DPP3-GFP		broth dilution	64 µg/mL
COc1cc(O)c2c(c1)C(=O)c1c(cc3c(c1O)-c1c(cc(C)c(C(=O)NC(C)C(=O)O)c1O)[C@H](OC1OC(CO)C(O)C(O)C1O)[C@H]3O)C2=O	MIC	A9540			>100 µg/mL
OC(Cn1cncn1)(Cn1cncn1)c1ccc(F)cc1F	MIC	ATCC 24433			0.5 µg/mL
C=CC(O)C#CC#CC(O)C(O)/C=C/CCCCCC	MIC	105			200–400 µg/mL
Cc1ccc2c([N+](=O)[O-])cc([N+](=O)[O-])c(O)c2n1	MIC80				62.5 µg/mL
C[C@@H]1[C@H](O)[C@@H](C)/C=C/C=C/C=C/C=C/C=C/C=C/C=C/[C@H](O[C@@H]2O[C@H](C)[C@@H](O)[C@H](N)[C@@H]2O)C[C@@H]2O[C@](O)(C[C@@H](O)C[C@@H](O)[C@H](O)CC[C@@H](O)C[C@@H](O)CC(=O)O[C@H]1C)C[C@H](O)[C@H]2C(=O)O	MIC	ATCC 18804		broth dilution	0.08 µg/mL
COc1cc(O)c2c(c1)C(=O)c1c(cc3c(c1O)-c1c(cc(C)c(C(=O)NC(C)C(=O)O)c1O)[C@H](OC1OC(C)C(O)C1O)[C@H]3O)C2=O	MIC	A9540			>100 µg/mL
C=C1OC(=O)c2c(OC)cc(OC)c(C)c21	MIC	NCPF3135		broth dilution / absorbance	>128 µg/mL
COc1ccccc1O	MIC			broth dilution	10 µg/mL
COc1cc(C(=O)O)ccc1O	MIC	ATCC 90028	biofilm	XTT	4000 µg/mL
CN(C/C=C/C#CC(C)(C)C)Cc1cccc2ccccc12	MIC90	CI_5			16 µg/mL
CNC1C(C)OC(O[C@H]2c3cc(C)c(C(=O)NC(C)C(=O)OC)c(O)c3-c3c(cc4c(c3O)C(=O)c3cc(OC)cc(O)c3C4=O)[C@@H]2O)C(O)C1OC1OC(CO)C(O)C(O)C1F	MIC	A9540			12.5 µg/mL
Oc1cc2cc(c1O)Oc1ccc(cc1)CCc1cccc(O)c1Oc1cccc(c1)CC2	MIC80	BWP17-DPP3-GFP		broth dilution	>64 µg/mL
C=CCc1ccc(O)c(OC)c1	MIC	ATCC 90028	biofilm	XTT	500 µg/mL
CN(C/C=C/C#CC(C)(C)C)Cc1cccc2ccccc12	MIC	ATCC 24433			1 µg/mL
O=C1C(c2ccccn2)=[N+]([O-])c2ccccc21	MIC				7.81 µg/mL
COC1Cc2cccc(c2)Oc2c(O)cccc2CCc2ccc(cc2)Oc2cc1cc(O)c2O	MIC80	BWP17-DPP3-GFP		broth dilution	>64 µg/mL
O=C1C(c2ccc(Cl)cc2)=[N+]([O-])c2cc3c(cc21)OCO3	MFC				>125 µg/mL
Cc1cccc(O)c1	MIC			broth dilution	850 µg/mL
Oc1ccc2cc1Oc1ccc(cc1)CCc1cccc(c1)Oc1c(O)cccc1CC2	MIC80	BWP17-DPP3-GFP		broth dilution	>64 µg/mL
CNC1C(C)OC(O[C@H]2c3cc(C)c(C(=O)NC(C)C(=O)OC)c(O)c3-c3c(cc4c(c3O)C(=O)c3cc(OC)cc(O)c3C4=O)[C@@H]2O)C(O)C1OC1OC(CO)C(O)C1O	MIC	A9540			50 µg/mL
C=C(C)CN1CC(OCC23C[C@@H]4[C@H](C)CC[C@H]4C4(C=O)CC2C=C(C(C)C)[C@@]34C(O)O)O[C@H](C)[C@@H](O)C1	MIC	ATCC 24433			0.016 µg/mL
COc1cccc2ccc[n+](C)c12.[I-]	MIC				>100 µg/mL
Oc1ccc2cc1Oc1ccc(cc1)CCc1cccc(O)c1-c1c(O)cccc1CC2	MIC80	BWP17-DPP3-GFP		broth dilution	>64 µg/mL
O=C(O)c1ccccc1O	MIC	ATCC 90028	biofilm	XTT	2000 µg/mL

The first 5 rows once more:

{"SMILES": "CCC[C@H](N)C(=O)N[C@H]1CCN(c2c(F)cn3c(=O)c(C(=O)O)cc(C4CC4)c3c2C)C1.Cl", "read-out": "MIC", "strain": "CCH442", "result": ">100 µg/mL"}
{"SMILES": "Clc1ccc(COC(Cn2ccnc2)c2ccc(Cl)cc2Cl)cc1", "read-out": "MIC50", "result": "6.25 µg/mL"}
{"SMILES": "C/C=C/c1ccc(O)c(OC)c1", "read-out": "MIC", "method": "broth dilution", "result": "170 µg/mL"}
{"SMILES": "Cc1c(N2CC(N)C2)c(F)cn2c(=O)c(C(=O)O)cc(C3CC3)c12", "read-out": "MIC", "strain": "CCH442", "result": ">100 µg/mL"}
{"SMILES": "CNC1C(C)OC(O[C@H]2c3cc(C)c(C(=O)NC(C)C(=O)OC)c(OC4OC(CO)C(O)C(O)C4O)c3-c3c(cc4c(c3O)C(=O)c3cc(OC)cc(O)c3C4=O)[C@@H]2O)C(O)C1OC1OC(CO)C(O)C(O)C1O", "read-out": "MIC", "strain": "A9540", "result": ">100 µg/mL"}